Results deposited as PubChem BioAssay AID1259414 (Drosophila RNAi Screening Center, 2018).
The deposit covers about 24,000 reagents; below is an unselected part of those that have a named target and a result. Over the whole deposit, about 1,210 (5%) got an active call. 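Inactive calls also include excluded dsRNAs with several or no targets, genes unexpressed in JW18, and well A1, regardless of score.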 Names joined by + are all predicted targets of the reagent. Reagent sequences are not shown.

- Purpose: 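Host factors increasing or decreasing Wolbachia levels in cultured fly cells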 (primary screen)
- System: Drosophila JW18 cells infected with Wolbachia
- Knock-down reagent: long dsRNA against Drosophila genes, 0.25 µg dsRNA per well of a 384-well plate
- Duration: 5 days
- Treatment: cells persistently infected with Wolbachia before knock-down; no added drug
- Measurement: 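Imaged fluorescence in situ signal for Wolbachia 23S rRNA per DAPI-counted host cell, given as a robust z-score within each plate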
- Direction: Wolbachia per cell robust z: higher = more Wolbachia per host cell than the plate typical
- Hit rule: 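Active if absolute robust z reaches 1.5 in two or more of three replicates, leaving out multi- or no-target dsRNAs, genes unexpressed in JW18 and A1 wells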

| gene knocked down | amplicon | Wolbachia per cell robust z, rep 1 | Wolbachia per cell robust z, rep 2 | Wolbachia per cell robust z, rep 3 | Call |
| --- | --- | --- | --- | --- | --- |
| CG10164 | DRSC14197 | -0.12 | -1.61 | 0.31 | inactive |
| Obp56g (Odorant-binding protein 56g) | DRSC06432 | 0.948 | -2.04 | 0.858 | inactive |
| mod(mdg4) + pre-mod(mdg4)-Z + pre-mod(mdg4)-T | DRSC13477 | 1.7 | 1.52 | 1.14 | inactive |
| mod(mdg4) + pre-mod(mdg4)-Z + pre-mod(mdg4)-T | DRSC17001 | -2.93 | 0.113 | 0.689 | inactive |
| Orc1 (Origin recognition complex subunit 1) | DRSC07496 | 1.63 | -1.53 | 1.13 | inactive |
| Orc1 (Origin recognition complex subunit 1) | DRSC41424 | -0.67 | 0.107 | 0.666 | inactive |
| GstE12 (Glutathione S transferase E12) | DRSC04047 | -0.197 | -0.511 | 1.38 | inactive |
| GstE12 (Glutathione S transferase E12) | DRSC27281 | -0.797 | -0.205 | -0.63 | inactive |
| Pdp1 (PAR-domain protein 1) | DRSC08896 | 2.69 | 3.96 | 2.27 | active |
| Pdp1 (PAR-domain protein 1) | DRSC08897 | 3.66 | 3.36 | 3.75 | active |
| Pdp1 (PAR-domain protein 1) | DRSC11251 | 0.139 | -0.185 | 0.383 | inactive |
| Pdp1 (PAR-domain protein 1) | DRSC22973 | -2.88 | 0.114 | -1.03 | inactive |
| CG32713 | DRSC22766 | 1.64 | 1.16 | 1.05 | inactive |
| CG18754 | DRSC15387 | -3.63 | -0.293 | -4.58 | active |
| CG31206 | DRSC13388 | -1.32 | -0.101 | 0.674 | inactive |
| nerfin-2 (nervous fingers 2) | DRSC14547 | -0.263 | -0.46 | -0.761 | inactive |
| nerfin-2 (nervous fingers 2) | DRSC28542 | 0.24 | 0.241 | -0.676 | inactive |
| CG42497 + Tim10 | DRSC04664 | 0.823 | 0.627 | -0.571 | inactive |
| REG (Proteasome regulator gamma) | DRSC20273 | -0.352 | -0.639 | -0.456 | inactive |
| BckdhB (Branched chain keto acid dehydrogenase E1 subunit beta) | DRSC38763 | -2.5 | 1.12 | -0.259 | inactive |
| CG5274 | DRSC11774 | 0.547 | 0.0455 | 1.12 | inactive |
| CG7248 | DRSC10788 | 0.521 | 0.419 | 0.69 | inactive |
| grn (grain) | DRSC16961 | 0.0859 | -0.281 | 0.101 | inactive |
| grn (grain) | DRSC25829 | -0.266 | -0.418 | -1.4 | inactive |
| CG15333 | DRSC18016 | 0.0775 | 0.309 | -0.0989 | inactive |
| CG15333 | DRSC18153 | 0.386 | -0.0238 | -0.376 | inactive |
| CG8620 | DRSC11020 | -1.38 | -1.48 | -0.98 | inactive |
| CG8620 | DRSC25632 | 1.21 | 0.369 | 0.661 | inactive |
| Usp14 (Ubiquitin specific protease 14) | DRSC02853 | -6.73 | 0.0142 | 0.584 | inactive |
| Usp14 (Ubiquitin specific protease 14) | DRSC26748 | 0.535 | -4 | -0.0951 | inactive |
| spoon (spoonbill) | DRSC18299 | -0.62 | 0.228 | 0.304 | inactive |
| spoon (spoonbill) | DRSC24520 | -0.157 | 0.754 | -0.91 | inactive |
| Ocrl (Oculocerebrorenal syndrome of Lowe) | DRSC18576 | 1.14 | 1.32 | 1.34 | inactive |
| qtc (quick-to-court) | DRSC02364 | -0.256 | 0.386 | 0.0329 | inactive |
| qtc (quick-to-court) | DRSC02365 | -0.392 | -2.81 | -0.263 | inactive |
| qtc (quick-to-court) | DRSC27377 | 0.406 | 0.225 | 0.64 | inactive |
| CG10984 | DRSC09817 | -0.00412 | 1.89 | 2.16 | active |
| CG10984 | DRSC28387 | 0.318 | 1.44 | 0.72 | inactive |
| gb (genderblind) | DRSC15961 | 0.505 | -7.12 | -0.62 | inactive |
| gb (genderblind) | DRSC24834 | -1.49 | -3.4 | -1.69 | active |
| CG45105 | DRSC15833 | 2.22 | 3.63 | 4.1 | active |
| CG45105 | DRSC25976 | -0.755 | 0.482 | -1.68 | inactive |
| CG45105 | DRSC38618 | 0.465 | -5.28 | 1.55 | inactive |
| CG42558 + CG42557 | DRSC13963 | -0.0239 | 0.214 | 0.408 | inactive |
| CG42558 + CG42557 | DRSC16329 | 0.149 | 0.193 | 0.586 | inactive |
| CG33178 | DRSC19950 | -0.345 | -0.761 | 0.769 | inactive |
| CG7514 | DRSC08597 | 0.401 | 1.04 | -5.54 | inactive |
| CG7514 | DRSC25670 | 0.387 | 1.4 | 0.395 | inactive |
| bora (aurora borealis) | DRSC10744 | 0.823 | 1.28 | 0.601 | inactive |
| CG30087 | DRSC21677 | 0.84 | 0.58 | -0.612 | inactive |
| CG30087 | DRSC27057 | -0.378 | -0.502 | 1.45 | inactive |
| Tm1 (Tropomyosin 1) | DRSC13082 | -0.0844 | -0.602 | 0.125 | inactive |
| Tm1 (Tropomyosin 1) | DRSC13083 | 0.123 | -2.1 | 0.933 | inactive |
| Tm1 (Tropomyosin 1) | DRSC16886 | -0.0132 | -2.29 | 0.22 | inactive |
| Tm1 (Tropomyosin 1) | DRSC25249 | 1.42 | 0.386 | 0.493 | inactive |
| Tm1 (Tropomyosin 1) | DRSC39135 | -0.291 | -0.608 | -5.71 | inactive |
| GABA-B-R1 (metabotropic GABA-B receptor subtype 1) | DRSC22038 | -0.305 | 0.374 | -1.38 | inactive |
| gom (gomdanji) | DRSC04690 | -3.5 | 0.862 | 0.112 | inactive |
| CG14410 | DRSC19596 | 0.102 | -3.34 | -3.82 | active |
| Sfp24Bc (Seminal fluid protein 24Bc) | DRSC41418 | -0.483 | -0.0319 | 0.478 | inactive |
| Idh (Isocitrate dehydrogenase) | DRSC10779 | 0.141 | 1.03 | 1.14 | inactive |
| CG5418 | DRSC02857 | 0.223 | -0.417 | -4.45 | inactive |
| CG5418 | DRSC25643 | -0.773 | 0.094 | 0.771 | inactive |
| Nadsyn (NAD synthetase) | DRSC20222 | -0.548 | 0.155 | -0.711 | inactive |
| TpnC4 (Troponin C isoform 4) | DRSC04856 | -1.52 | -2.4 | -0.148 | inactive |
| CG15571 | DRSC18059 | 0.926 | 0.246 | 0.392 | inactive |
| CG15571 | DRSC30098 | -1.02 | 0.44 | -1.14 | inactive |
| Cks85A (Cyclin-dependent kinase subunit 85A) | DRSC16562 | -4.29 | -2.61 | -3.18 | active |

Records listed so far marked active:
| gene knocked down | amplicon | Wolbachia per cell robust z, rep 1 | Wolbachia per cell robust z, rep 2 | Wolbachia per cell robust z, rep 3 | Call |
| --- | --- | --- | --- | --- | --- |
| Pdp1 (PAR-domain protein 1) | DRSC08896 | 2.69 | 3.96 | 2.27 | active |
| Pdp1 (PAR-domain protein 1) | DRSC08897 | 3.66 | 3.36 | 3.75 | active |
| CG18754 | DRSC15387 | -3.63 | -0.293 | -4.58 | active |
| CG10984 | DRSC09817 | -0.00412 | 1.89 | 2.16 | active |
| gb (genderblind) | DRSC24834 | -1.49 | -3.4 | -1.69 | active |
| CG45105 | DRSC15833 | 2.22 | 3.63 | 4.1 | active |
| CG14410 | DRSC19596 | 0.102 | -3.34 | -3.82 | active |
| Cks85A (Cyclin-dependent kinase subunit 85A) | DRSC16562 | -4.29 | -2.61 | -3.18 | active |
